Measured values taken from patent US20100239563A1 (priority 2001, published 2010).

Test system: influenza B virus strain Massachusetts/6/93
Conditions: U0126 50 μM, multiple passaging

Question: With N#CC(=C(N)Sc1ccccc1N)C(C#N)=C(N)Sc1ccccc1N [U0126, 1,4-diamino-2,3-dicyano-1,4-bis(2-aminophenylthio)butadiene] as the compound, how does the “formation of resistant virus variants (virus titer on passaging)” value read?
Answer: The value was “without resistant virus variants being formed”.
